Experimental findings from PMC3476531, “Synergy of Peptide and Sugar in O-GlcNAcase Substrate Recognition” (Chemistry & Biology, 2012) are described below.

The target of the assay is CpOGA (Clostridium perfringens, UniProt Q0TR53). Nature of the assay: CpOGA glycopeptide hydrolysis, substrate competition assay with 4MU-GlcNAc reporter. Particulars: read-out: Michaelis constant (KM) of glycopeptide substrate for CpOGA; competition with 4MU-GlcNAc reporter substrate; 37°C, 50 mM citrate-phosphate buffer pH 7.4, 0.1 mg/ml BSA; triplicate; ± error of curve-fit.

SMILES strings stand for the structures. The structures given here were assigned with low confidence; some may be wrong.

For the molecule `CC(=O)N[C@H]1[C@H](OC[C@H](NC(=O)[C@H](CC(=O)O)NC(=O)[C@@H](NC(C)=O)C(C)C)C(=O)N[C@H](C(=O)N2CCC[C@H]2C(=O)NCC(N)=O)[C@@H](C)O)O[C@H](CO)[C@@H](O)[C@@H]1O`, the Km (usually the substrate concentration at which the rate is half of its maximum) came to 48 µM.

As to `CC(=O)N[C@H]1[C@H](OC[C@H](NC(=O)[C@H](Cc2ccc(O)cc2)NC(=O)[C@@H]2CCCN2C(=O)[C@@H](NC(C)=O)C(C)C)C(=O)N[C@@H](CO)C(=O)N[C@@H](C)C(=O)N[C@@H](CCC(N)=O)C(N)=O)O[C@H](CO)[C@@H](O)[C@@H]1O`, the Km was 230 µM.
